These results are taken from patent US20230287087A1 (MAX PLANCK GESELLSCHAFT ZUR F RDERUNG DER WISSENSCHAFTEN E V, published 2023).

B1: Re8C06 (VHH)
VHH: QVQLVESGGGLVQAGGSLRLSCAASGRTDTIYNMGWFRQAPGKEREFVAAISWSDGKTTFADSVKGRFTISRDNAKNTVYLQMNSLKPEDTANYYCAAKAFLVAGRSLEEYDYSGQGTQVTVSS
B2: Re5B06 (VHH)
VHH: QVQLVESGGGLVQPGGSLRLSCAASGSIRSIYATVWFRQAPGKEHEWVGSITSSNVTTYADSVKGRFTISRDNAKKTVYLQMNSLKPEDTALYYCNVHFASEYSDYAQIQGQGTQVTVSS
B3: Re21B09 (VHH)
VHH: QVQLVESGGGLVQPGGSLRLSCAASGFTLDNYAIGWFRQAPGKEREGVSCIRSSDGSTYYADSVKGRFTISKDNAKNTVYLQMNSLKPEDTAVYYCATDGTFNPPCDDLYSWYFPERQGTQVTVSS
B4: Re6D08 (VHH)
VHH: QVQLVESGGGLVQAGGSLRLSCAASGRTFSSYAMGWFHQAPGKEREFVATINWSGDSTYYADSVKGRFTISRDNAKNTVYLQMNSLKPEDTAVYYCAAVVDPSPTYYSGKYYPPRVEYWGKGTQVTVSS
B5: Re25H10 (VHH)
VHH: QVQLVESGGGLVQPGGSLRLSCAASGFTFSSSAMSWARQAPGKGLEWVSTISEDGSTYYADSMKGRFTISRDNAKNTVYLQMNSLKPEDTAAYYCATSTEPRTVVAGWGDYLGQGTQVTVSS

The target in this assay is SARS-CoV-2 spike protein (transiently expressed in transfected HeLa cells) (SARS-CoV-2, UniProt P0DTC2 14-1273). As to the kind of experiment: IF, spike-transfected HeLa cells.
For the molecule B1, the binding result is “binds”.

Regarding B2, the binding result was “binds”.

Consider B3, for which the binding result is on record as “binds”.

For B4, the binding result is “binds”.

For the molecule B5, the binding result is recorded as “binds”.
